# Experimental data taken from patent publication US20080242870A1 (priority 2006, published 2008).
# Assays:
# [1] = Fluorescence response to phosphoryl esters
# [2] = Luminescence titration with thionyl chloride
substance,measurement,setting,value
"N,N′-bis(p-aminophenyl)-1,5-bis(p-tetraethyleneglycoloxy)phenyl)anthracene-2,3,6,7,-tetracarboxyl bisimide",fluorescence activation,"[1]; addition of dimethyl methylphosphonate, an unreactive phosphoryl ester",does not
same,fluorescence activation,[1]; addition of reactive phosphoryl esters (e.g. phosphoryl chlorides),activates the fluorescence
same,"fluorescence quantum yield, upper limit",[2]; increasing thionyl chloride concentration,0.15
same,fluorescence quantum yield,[2]; no added thionyl chloride,0
